In PMC7681013, “Structure and kinetics of indole-3-glycerol phosphate synthase from Pseudomonas aeruginosa: Decarboxylation is not essential for indole formation” (The Journal of Biological Chemistry, 2020) one finds Km and kcat data, which are given here for one substance.

The test system of this series is O=C(CNc1ccccc1)[C@H](O)[C@H](O)COP(=O)(O)O. Kind of series: purified protein. Conditions: 50 mM Tris-HCl, 4 mM MgCl2, 0.5 mM TCEP, pH 7.0, 25 °C, substrate made enzymatically in situ from aniline and PRPP, 2.5 μM enzyme.

Usually Km stands for the substrate concentration at which the rate is half of its maximum. As usually defined, the kcat is the maximal rate divided by the concentration of active sites.

On to “PaIGPS (Pseudomonas aeruginosa PAO1; F201L)”, for which the Km came to 130 ± 60 µM and the kcat stood at 0.00189 ± 0.00022 s⁻¹.
